Compound potency records, mixed from different reports. Data source: NIAID ChemDB in PubChem.

Common to all: tests on isolated targets; organism: Hepatitis C virus

Inhibition is in % at the dose shown (toxicity tests: loss of growth or viability).

| compound | tested at | protein | measure | result |
|---|---|---|---|---|
| CO/N=C\c1cnn2c(C3CCCCC3)c(-c3ccc(OCc4ccccc4)cc3)cnc12 |  | RNA-dependent RNA polymerase | IC50 | >10 µM |
| C[C@@H](NC(=O)Nc1cccc(-c2nc(C(=O)O)c(O)c(=O)[nH]2)c1)c1ccccc1 |  | HCV polymerase | IC50 | <100 µM |
| CC(=O)c1ccc(-c2cc(NS(=O)(=O)c3ccc(Cl)cc3)c(C(=O)O)s2)cc1 |  | NS3 ATPase | IC50 | <5 µM |
| CNC(=O)c1c(-c2ccc(F)cc2)oc2cc(C(C)=O)c(OC(C)C)cc12 |  | Nonstructural protein 5B | IC50 | ≤0.5 µM |
| O=C(O)c1nc(-c2ccsc2C(=O)O)[nH]c(=O)c1O |  | HCV polymerase | IC50 | <25 µM |
| O=C(O)c1sc(-c2ccccc2)cc1NC(=O)N1CCN(c2cccc(C(F)(F)F)c2)CC1 |  | NS3 ATPase | IC50 | 5–20 µM |
| COc1ccc(-c2ccc(C#N)cc2)c(-c2ccc3cc(-c4nc5cc(C(=O)O)ccc5n4C4CCCCC4)ccc3n2)c1 | 100 µM | NS5B polymerase | inhibition | 102.6% |
| Cc1ccc(C(=O)N(C)c2cc(-c3cccc(C#N)c3)sc2C(=O)O)cc1 |  | NS3 ATPase | IC50 | <5 µM |
| COc1ccc(-c2nc3cc(C(=O)O)[nH]n3c(=O)c2C2CCCCC2)cc1 |  | RNA-dependent RNA polymerase | IC50 | 1–10 µM |
| O=C(Nc1ccsc1-c1nc(C(=O)O)c(O)c(=O)[nH]1)c1ccccc1 |  | HCV polymerase | IC50 | <25 µM |
| Cc1nn2c(C3CCCCC3)c(-c3ccoc3)cnc2c1C(=O)O |  | RNA-dependent RNA polymerase | IC50 | >10 µM |
| O=C(Nc1cc(-c2ccccc2)sc1C(=O)O)Oc1ccc(Cl)cc1 |  | NS3 ATPase | IC50 | 5–20 µM |
| CNC(=O)c1c(-c2ccc(F)cc2)oc2cc(S(=O)(=O)N3CCC(O)C3)c(OC(C)C)cc12 |  | Nonstructural protein 5B | IC50 | ≤0.5 µM |
| O=c1c(C2CCCCC2)c(-c2ccc(OCc3ccccc3)cc2)nc2cc(-c3nn[nH]n3)[nH]n12 |  | RNA-dependent RNA polymerase | IC50 | <1 µM |
| COc1ccc(-c2cccc(Cl)c2)c(-c2ccc3cc(-c4nc5cc(C(=O)O)ccc5n4C4CCCCC4)ccc3n2)c1 | 100 µM | NS5B polymerase | inhibition | 99.18% |
| Nc1ccccc1CNC(=O)Nc1ccccc1-c1nc(C(=O)O)c(O)c(=O)[nH]1 |  | HCV polymerase | IC50 | <100 µM |
| CC(C)N(C(=O)C1CCC(Cl)CC1)c1cc(-c2ccccc2)sc1C(=O)O |  | NS3 ATPase | IC50 | <5 µM |
| C[C@H](NC(=O)c1ccc2cc(-c3nc4cc(C(=O)O)ccc4n3C3CCCCC3)ccc2n1)C(N)=O | 100 µM | NS5B polymerase | inhibition | 88.47% |
| COc1cc2c(C(=O)NC3CC3)c(-c3ccc(F)cc3)oc2cc1-c1c(C)noc1C |  | Nonstructural protein 5B | IC50 | ≤0.5 µM |
| O=C(N[C@H](Cc1c[nH]c2ccccc12)C(=O)O)c1cnn2c(C3CCCCC3)c(-c3ccc(F)cc3)cnc12 |  | RNA-dependent RNA polymerase | IC50 | <1 µM |
| O=C(O)c1sc(-c2ccccc2)cc1N(Cc1ccc(C(F)(F)F)cc1)C(=O)CC1CCCC1 |  | NS3 ATPase | IC50 | 5–20 µM |
| COc1ccc(-c2ccc(CN)cc2)c(-c2ccc3cc(-c4nc5cc(C(=O)O)ccc5n4C4CCCCC4)ccc3n2)c1 | 33 µM | NS5B polymerase | inhibition | 95.54% |
| CC(C)N(C(=O)c1ccc(Cl)cc1I)c1cc(-c2ccccc2)sc1C(=O)O |  | NS3 ATPase | IC50 | <5 µM |
| CCOC(=O)c1cnn2c(C)cc(-c3ccc(OCC)cc3)nc12 |  | RNA-dependent RNA polymerase | IC50 | >10 µM |
| O=C(Nc1cccc(-c2nc(C(=O)O)c(O)c(=O)[nH]2)c1)Nc1ccc(Cl)c(Cl)c1 |  | HCV polymerase | IC50 | <100 µM |
| O=C(O)c1ccc2c(c1)nc(-c1ccc3nc(-c4cccc(C(=O)N5CCCC5)c4)ccc3c1)n2C1CCCCC1 | 33 µM | NS5B polymerase | inhibition | 97.76% |
| CCOc1cc2c(C(=O)NC)c(-c3ccc(F)cc3)oc2cc1N(CC)S(C)(=O)=O |  | Nonstructural protein 5B | IC50 | ≤0.5 µM |
| Cc1nc(C)c(-c2ccc3cc(-c4nc5cc(C(=O)O)ccc5n4C4CCCCC4)ccc3n2)s1 | 100 µM | NS5B polymerase | inhibition | 102% |
| O=C(O)c1cnn2c(C3CCCCC3)c(-c3ccc4ncccc4c3)cnc12 |  | RNA-dependent RNA polymerase | IC50 | >10 µM |
| O=C(NC(C(=O)O)C1CCCCC1)c1ccc2c(c1)nc(-c1ccc3nc(-c4ccccc4)cnc3c1)n2C1CCCCC1 | 33 µM | NS5B polymerase | inhibition | 95.99% |
| O=C(O)c1nc(-c2ccccc2Br)[nH]c(=O)c1O |  | HCV polymerase | IC50 | <100 µM |
| O=C(O)c1ccc2c(c1)nc(-c1ccc3nc(-c4cc(C(=O)N5CCCC5)ccc4-c4ccc(F)cc4)ccc3c1)n2C1CCCCC1 | 33 µM | NS5B polymerase | inhibition | 100% |
| O=C(O)c1cc2nccc(-c3cccc(-c4ccccc4F)c3)n2n1 |  | RNA-dependent RNA polymerase | IC50 | >10 µM |
| O=C(O)c1nc(-c2sccc2NC(=O)C(c2ccccc2)c2ccccc2)[nH]c(=O)c1O |  | HCV polymerase | IC50 | <25 µM |

Again, the opening 5 rows:

compound | tested at | protein | measure | result
CO/N=C\c1cnn2c(C3CCCCC3)c(-c3ccc(OCc4ccccc4)cc3)cnc12 |  | RNA-dependent RNA polymerase | IC50 | >10 µM
C[C@@H](NC(=O)Nc1cccc(-c2nc(C(=O)O)c(O)c(=O)[nH]2)c1)c1ccccc1 |  | HCV polymerase | IC50 | <100 µM
CC(=O)c1ccc(-c2cc(NS(=O)(=O)c3ccc(Cl)cc3)c(C(=O)O)s2)cc1 |  | NS3 ATPase | IC50 | <5 µM
CNC(=O)c1c(-c2ccc(F)cc2)oc2cc(C(C)=O)c(OC(C)C)cc12 |  | Nonstructural protein 5B | IC50 | ≤0.5 µM
O=C(O)c1nc(-c2ccsc2C(=O)O)[nH]c(=O)c1O |  | HCV polymerase | IC50 | <25 µM

An empty or dashed field is not shown. ICn is the concentration giving n% inhibition. Two numbers with a dash give a range or band. Lines come from different laboratories, so protocols vary.